Results of unrelated studies side by side (data: NIAID ChemDB).

Shared fields: whole-cell or culture tests

Percent inhibition refers to the dose given; in toxicity tests it is the harm to the cells.

| structure | read-out | dose | species | method | strain or isolate | cells | result |
|---|---|---|---|---|---|---|---|
| CCC(CC)[C@H](NC(C)=O)[C@@H]1[C@H](O)[C@@H](C(=O)O)C[C@H]1N=C(N)N | EC50 |  | Influenza A virus | visual reading | H1N1 A/Beijing/262/95 | MDCK | 0.17 µM |
| O=[N+]([O-])c1ccc(C=Nc2ccccc2O)cc1 | MIC99 |  | Cryptococcus gattii |  | 1913 ER |  | 16 µg/mL |
| Cc1cn([C@@H]2O[C@H](CO)[C@@H](O)[C@@H]2O)c(=O)[nH]c1=O | inhibition | 1 µg/mL | Varicella zoster virus | plaque count | HIRAI | HELF | 100% |
| Cc1cc(CCCOc2c(C)cc(-c3noc(C(F)(F)F)n3)cc2C)on1 | EC50 |  | Rhinovirus | cytopathic effect / visual reading | Isolate 4 | OHIO HELA-I | 0.08 µg/mL |
| C=Cc1cn([C@@H]2O[C@H](CO)[C@@H](O)[C@@H]2O)c(=O)[nH]c1=O | inhibition | 0.01 µg/mL | Varicella zoster virus | plaque count | HIRAI | HELF | 8% |
| O=C1C(c2[nH]c3ccc(S(=O)(=O)O)cc3c2O)=Nc2ccc(S(=O)(=O)O)cc21 | inhibition | 5 µg/mL | Herpes simplex virus | cytopathic effect |  | Human conjunctiva cells | 0% |
| CCOC(=O)c1c(C)nc(NCCCCNc2ccnc3cc(Cl)ccc23)nc1-c1ccccc1[N+](=O)[O-] | MIC99 |  | Cryptococcus neoformans |  | 27JF |  | 16 µg/mL |
| Nc1c(S(=O)(=O)O)cc2cc(S(=O)(=O)O)cc(O)c2c1O | inhibition | 50 µg/mL | Adenovirus | cytopathic effect | TYPE 3 | Human embryonic lung cells | 90% |
| Oc1ccccc1N=Cc1ccc(F)cc1 | MIC99 |  | Cryptococcus gattii |  | 1913 ER |  | 8 µg/mL |
| O=C(Nc1ccc2cc(S(=O)(=O)[O-])cc(S(=O)(=O)[O-])c2c1)c1ccccc1 | inhibition | 5 µg/mL | Adenovirus | cytopathic effect | TYPE 3 | Human embryonic lung cells | 0% |
| CCC(CC)O[C@@H]1C=C(C(=O)O)C[C@H](N)[C@H]1NC(C)=O | EC50 |  | Influenza A virus | plaque count | H1N1 isolate C23C | MDCK | ≤0.045 µg/mL |
| O=S(=O)(O)c1cc(O)c2c(O)cc(S(=O)(=O)O)cc2c1 | inhibition | 10 µg/mL | Adenovirus | cytopathic effect | TYPE 3 | Human embryonic lung cells | 20% |
| Cc1cn([C@@H]2O[C@H](CO)[C@@H](O)[C@@H]2F)c(=O)nc1N | inhibition | 0.01 µg/mL | Varicella zoster virus | plaque count | KANNO | HELF | 67% |
| Oc1ccccc1C=Nc1ccccc1O | MIC99 |  | Cryptococcus gattii |  | L-28/02 |  | 5.7 µg/mL |
| O=c1[nH]c(=O)n([C@H]2C[C@H](O)[C@@H](CO)O2)cc1I | inhibition | 1 µg/mL | Varicella zoster virus | plaque count | OKA | HELF | 100% |
| O=S(=O)([O-])c1cc(NS(=O)(=O)c2ccccc2)c2c(S(=O)(=O)[O-])cc(S(=O)(=O)[O-])cc2c1 | inhibition | 50 µg/mL | Herpes simplex virus | cytopathic effect |  | Human amnion AV3 cells | 0% |
| CCOC(=O)c1ccc(OCCC2CCN(c3ccc(C)nn3)CC2)cc1 | EC50 |  | Rhinovirus | neutral red | 107E (ICAM-1 receptor group 73) | KB | 0.018 µM |
| O=S(=O)([O-])c1cccc(O)c1 | inhibition | 10 µg/mL | Herpes simplex virus | cytopathic effect |  | Human amnion AV3 cells | 10% |
| CCc1cn([C@@H]2O[C@H](CO)[C@@H](O)[C@@H]2O)c(=O)[nH]c1=O | inhibition | 100 µg/mL | Varicella zoster virus | plaque count | Asahikawa | HELF | 38% |
| C=CCc1ccc(O)c(OC)c1 | MIC90 |  | Candida albicans | turbidity | 3048 |  | 500 µg/mL |
| O=S(=O)(O)CO | inhibition | 10 µg/mL | Herpes simplex virus | cytopathic effect |  | Human amnion AV3 cells | 70% |

3 of the rows above, restated:

{"structure": "CCc1cn([C@@H]2O[C@H](CO)[C@@H](O)[C@@H]2O)c(=O)[nH]c1=O", "read-out": "inhibition", "dose": "100 µg/mL", "species": "Varicella zoster virus", "method": "plaque count", "strain or isolate": "Asahikawa", "cells": "HELF", "result": "38%"}
{"structure": "O=S(=O)(O)c1cc(O)c2c(O)cc(S(=O)(=O)O)cc2c1", "read-out": "inhibition", "dose": "10 µg/mL", "species": "Adenovirus", "method": "cytopathic effect", "strain or isolate": "TYPE 3", "cells": "Human embryonic lung cells", "result": "20%"}
{"structure": "CCOC(=O)c1c(C)nc(NCCCCNc2ccnc3cc(Cl)ccc23)nc1-c1ccccc1[N+](=O)[O-]", "read-out": "MIC99", "species": "Cryptococcus neoformans", "strain or isolate": "27JF", "result": "16 µg/mL"}

ECn: concentration that inhibits the pathogen or its effect by n%. Conditions beyond the fields shown may differ between rows. An empty or dashed field is not shown. MIC50, MIC90 and the like: level of inhibition, or share of isolates inhibited.